Measured values from several laboratories, pooled; numbers as filed in NIAID ChemDB.

Shared fields: growth or infection tests; species: Hepatitis C virus

An empty or dashed field is not shown.

compound	strain	mutations	cells	method	measure	tested at	result
COc1cccc(-c2cccc(NC(=O)C3CCN(CC=C(C)C)CC3)c2)c1	JFH-1	-	Huh7	PCR	inhibition	5 µM	≥40%
NC(=S)Nc1cccc(OCCCCCCCCOc2cccc3ccccc23)c1	-	-	Ava5-EG(delta4AB)SEAP	reporter gene / fluorescence	EC50	-	0.001–1 µM
CC1(C)CC(=O)C2=C(C1)Nc1c(O)cccc1NC2c1ccc(C(F)(F)F)cc1F	1b	-	-	luciferase / reporter gene / replicon	EC50	-	85.06 µM
COc1ccccc1CN1CCC(C(=O)Nc2ccc(C3N=C4C=CC=CC4N3)cc2)CC1	JFH-1	-	Huh7	PCR	inhibition	5 µM	≥70%
CCCCCCCCNC(=S)Nc1ccc2c(c1)Cc1cc(Br)ccc1-2	-	-	Ava5-EG(delta4AB)SEAP	reporter gene / fluorescence	EC50	-	0.001–1 µM
O=C(N[C@@H](C(=O)N1CCC[C@H]1c1ncc(-c2ccc(-c3ccc(-c4cnc([C@@H]5CCCN5C(=O)[C@H](NC(=O)C5CC5)c5ccccc5)s4)cc3)cc2)s1)c1ccccc1)C1CC1	genotype 1b	Y93C	Huh7.5	luciferase / reporter gene	fold resistance	-	52
COc1cc(CN2CCC(C(=O)Nc3ccc(Oc4ccccc4F)cc3)CC2)ccc1O	JFH-1	-	Huh7	PCR	inhibition	5 µM	≥40%
CC1(C)CC(=O)C2=C(C1)Nc1c(O)cccc1N(C(=O)CCC(=O)O)C2c1ccc(OCc2ccccc2)cc1Cl	1b	-	-	luciferase / reporter gene / replicon	EC50	-	25.59 µM
COC(=O)N[C@H](C(=O)N1CCCC1c1ncc(-c2ccc(-c3ccc(-c4cnc([C@@H]5CC(C)CN5C(=O)[C@@H](NC(=O)CO)C(C)C)[nH]4)cc3)cc2)[nH]1)C(C)C	1b Con1	-	ET	luciferase	EC50	-	0.0000098 µM
COc1cccc(CN2CCC(C(=O)Nc3ccc(Oc4ccccc4F)cc3)CC2)c1O	JFH-1	-	Huh7	PCR	inhibition	5 µM	≥40%
CC1(C)CC(=O)C2=C(C1)Nc1c(O)cccc1N(C(=O)CCC(=O)NS(=O)(=O)c1ccccc1)C2c1ccc(OCc2ccccc2)cc1Cl	1b	-	-	luciferase / reporter gene / replicon	EC50	-	>100 µM
COc1cccc(-c2ccccc2NC(=O)C2CCN(Cc3c(C)cccc3C)CC2)c1	JFH-1	-	Huh7	PCR	inhibition	15 µM	≥40%
COc1cc([C@@H]2O[C@H](c3cc(OC)c4c(c3)OCO4)[C@@H](C)[C@@H]2C)cc(OC)c1OC	Cell culture J6/JFH-1	-	Huh7.5	-	inhibition	12.5 µM	92%
NC(=S)Nc1cccc(OCCCCCOc2cccc3ccccc23)c1	-	-	Ava5-EG(delta4AB)SEAP	reporter gene / fluorescence	EC50	-	0.001–1 µM
CCOC(=O)CNC(=O)N1c2cccc(O)c2NC2=C(C(=O)CC(C)(C)C2)C1c1ccc(OCc2ccccc2)cc1Cl	1b	-	-	luciferase / reporter gene / replicon	EC50	-	4.92 µM
CC1CCC(C(=O)N(c2cc(C#CC(C)(C)C)sc2C(=O)O)C2CCC(O)CC2)CC1	H77 (GT1a)	I482L	Huh7	luciferase	fold resistance	-	34.2
CC1CCCCN1C(=O)CCC(=O)N1c2cccc(O)c2NC2=C(C(=O)CC(C)(C)C2)C1c1ccc(OCc2ccccc2)cc1Cl	1b	-	-	luciferase / reporter gene / replicon	EC50	-	2.01 µM
COc1cc(C(c2cc(OC)c3c(c2)OCO3)[C@@H]2COC(=O)[C@@H]2C)cc2c1OCO2	Subgenomic replicon S52	P1220S D1430H S2204I	Huh7.5	luciferase	inhibition	50 µM	88%
CC(=O)N1c2cccc(O)c2NC2=C(C(=O)CC(C)(C)C2)C1c1[nH]c(-c2ccccc2)nc1Cl	1b	-	-	luciferase / reporter gene / replicon	EC50	-	>100 µM
NC(=S)Nc1cccc(OCCCCCOc2ccc(Cl)c3ccccc23)c1	-	-	Ava5-EG(delta4AB)SEAP	reporter gene / fluorescence	EC50	-	0.001–1 µM
O=C(Nc1cccc(-c2cccc(F)c2)c1)C1CCN(Cc2cccc3c2NSN3)CC1	JFH-1	-	Huh7	PCR	inhibition	15 µM	≥40%

2 of the rows above, restated:

compound	strain	mutations	cells	method	measure	tested at	result
COc1ccccc1CN1CCC(C(=O)Nc2ccc(C3N=C4C=CC=CC4N3)cc2)CC1	JFH-1	-	Huh7	PCR	inhibition	5 µM	≥70%
CC(=O)N1c2cccc(O)c2NC2=C(C(=O)CC(C)(C)C2)C1c1[nH]c(-c2ccccc2)nc1Cl	1b	-	-	luciferase / reporter gene / replicon	EC50	-	>100 µM

a–b is a range or a potency band. Fold resistance has wild type as its base. ECn is the concentration giving n% inhibition of infection, replication or growth. Inhibition is in % at the dose shown (toxicity tests: loss of growth or viability). Conditions beyond the fields shown may differ between rows.